PubChem BioAssay AID624099, ICCB-Longwood | 2012
Here is a random part of about 21,000 deposited reagents. In the full data, 497 (2.4%) were called active. 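Higher z means weaker E2 silencing; only reporter increases were scored, and knock-downs that hurt cell survival may mask genuine repressor factors.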 Reagents against one gene are numbered here. Reagent sequences are not shown.

- Aim: 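Human genes that papillomavirus E2 requires to repress the HPV18 LCR promoter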 (primary screen)
- System: human C33A cervical carcinoma cells (HPV-negative) stably expressing BPV1 E2 and an HPV18 LCR luciferase reporter
- Reagent: siRNA pool against human genes, 40 nM
- Duration: 72 h
- Measured: 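HPV18 LCR reporter light per well, converted to plate-wise z-scores that exclude control wells, and averaged over triplicate plates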
- Reading the numbers: mean z-score and z-score: higher = stronger reporter signal, weaker E2 silencing
- Active means: 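Hit if mean z-score reaches 2 and two or more of three replicate z-scores also reach 2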

The opening 7 entries as a preview:
| target | reagent | mean z-score | z-score, replicate A | z-score, replicate B | z-score, replicate C | Call |
| --- | --- | --- | --- | --- | --- | --- |
| KANK1 (KN motif and ankyrin repeat domains 1) | 1 | -0.34 | -0.41 | -0.39 | -0.23 | inactive |
| EMP2P1 (EMP2 pseudogene 1) | 1 | -0.55 | -0.62 | -0.18 | -0.85 | inactive |
| SMCP (sperm mitochondria associated cysteine rich protein) | 1 | -1.3 | -1.17 | -1.21 | -1.52 | inactive |
| LINC00326 (long independently transcribed non-coding RNA 326) | 1 | -1.29 | -0.86 | -1.2 | -1.81 | inactive |
| LINC00642 (long independently transcribed non-coding RNA 642) | 1 | -0.78 | -0.58 | -0.78 | -0.97 | inactive |
| GPR180 (G protein-coupled receptor 180) | 1 | -0.77 | -0.61 | -0.87 | -0.84 | inactive |
| ATP5MGL (ATP synthase membrane subunit g like) | 1 | -0.12 | 0.04 | 0.06 | -0.47 | inactive |

The list itself, from the first entry:
| target | reagent | mean z-score | z-score, replicate A | z-score, replicate B | z-score, replicate C | Call |
| --- | --- | --- | --- | --- | --- | --- |
| KANK1 (KN motif and ankyrin repeat domains 1) | 1 | -0.34 | -0.41 | -0.39 | -0.23 | inactive |
| EMP2P1 (EMP2 pseudogene 1) | 1 | -0.55 | -0.62 | -0.18 | -0.85 | inactive |
| SMCP (sperm mitochondria associated cysteine rich protein) | 1 | -1.3 | -1.17 | -1.21 | -1.52 | inactive |
| LINC00326 (long independently transcribed non-coding RNA 326) | 1 | -1.29 | -0.86 | -1.2 | -1.81 | inactive |
| LINC00642 (long independently transcribed non-coding RNA 642) | 1 | -0.78 | -0.58 | -0.78 | -0.97 | inactive |
| GPR180 (G protein-coupled receptor 180) | 1 | -0.77 | -0.61 | -0.87 | -0.84 | inactive |
| ATP5MGL (ATP synthase membrane subunit g like) | 1 | -0.12 | 0.04 | 0.06 | -0.47 | inactive |
| FAM226A (family with sequence similarity 226 member A) | 1 | -1.14 | -1.57 | -0.68 | -1.16 | inactive |
| MMP19 (matrix metallopeptidase 19) | 1 | 1.27 | 1.19 | 1.34 | 1.29 | inactive |
| KLHL25 (kelch like family member 25) | 1 | 0.73 | 0.74 | 0.85 | 0.59 | inactive |
| FAM13C (family with sequence similarity 13 member C) | 1 | 1.04 | 1.31 | 1.01 | 0.8 | inactive |
| MAP4K1 (mitogen-activated protein kinase kinase kinase kinase 1) | 1 | 1.05 | 1.33 | 0.86 | 0.97 | inactive |
| PLEKHA6 (pleckstrin homology domain containing A6) | 1 | -1.51 | -1.7 | -1.56 | -1.26 | inactive |
| ALDH3B2 (aldehyde dehydrogenase 3 family member B2) | 1 | 0.71 | 0.86 | 0.69 | 0.57 | inactive |
| LINC00626 (long independently transcribed non-coding RNA 626) | 1 | 0.68 | 0.47 | 0.87 | 0.72 | inactive |
| SLC9A9 | 1 | -0.88 | -1.28 | -1.02 | -0.34 | inactive |
| RMC1 (regulator of MON1-CCZ1) | 1 | -1.67 | -1.89 | -1.71 | -1.42 | inactive |
| YWHAQ | 1 | -0.29 | -0.26 | -0.73 | 0.11 | inactive |
| SSH2 (slingshot protein phosphatase 2) | 1 | -0.55 | -0.85 | -0.49 | -0.31 | inactive |
| SLC9B1 | 1 | 1.51 | 1.87 | 1.78 | 0.89 | inactive |
| GPR173 (G protein-coupled receptor 173) | 1 | 0.39 | 0.18 | 0.4 | 0.58 | inactive |
| AGRP (agouti related neuropeptide) | 1 | -0.08 | 0.08 | -0.01 | -0.31 | inactive |
| CCM2L (CCM2 like scaffold protein) | 1 | -0.23 | 0.38 | -0.27 | -0.82 | inactive |
| IPO5 (importin 5) | 1 | -0.2 | -0.12 | -0.27 | -0.2 | inactive |
| CNIH1 (cornichon family member 1) | 1 | -0.89 | -1.06 | -0.62 | -1 | inactive |
| OSBPL6 (oxysterol binding protein like 6) | 1 | -1.8 | -1.93 | -1.46 | -2.01 | inactive |
| CST7 (cystatin F) | 1 | -0.38 | -0.42 | -0.44 | -0.3 | inactive |
| PKNOX1 (PBX/knotted 1 homeobox 1) | 1 | 0.41 | 0.52 | 0.4 | 0.31 | inactive |
| C4B (complement C4B (Chido/Rodgers blood group)) | 1 | -0.06 | 0.09 | -0.27 | -0.02 | inactive |
| C4B (complement C4B (Chido/Rodgers blood group)) | 2 | -0.38 | -0.17 | -0.27 | -0.7 | inactive |
| SLC25A15 | 1 | -0.82 | -0.72 | -0.86 | -0.87 | inactive |
| SRFBP1 (serum response factor binding protein 1) | 1 | -1.16 | -0.95 | -1.3 | -1.23 | inactive |
| CDK19 (cyclin dependent kinase 19) | 1 | -0.05 | -0.05 | -0.03 | -0.07 | inactive |
| PCDHA2 (protocadherin alpha 2) | 1 | 0.36 | 0.41 | 0.47 | 0.21 | inactive |
| FAM230I (family with sequence similarity 230 member I) | 1 | 0.06 | -0.18 | 0.5 | -0.15 | inactive |
| LOC389562 (retired record) | 1 | 0.2 | 0.46 | -0.06 | 0.2 | inactive |
| LOC256176 (retired record) | 1 | 0.12 | 0.03 | 0 | 0.34 | inactive |
| HIVEP2 (HIVEP zinc finger 2) | 1 | 1.56 | 2.05 | 1.29 | 1.34 | inactive |
| GPAT4 (glycerol-3-phosphate acyltransferase 4) | 1 | -0.22 | -0.29 | -0.15 | -0.23 | inactive |
| NEU4 (neuraminidase 4) | 1 | 0.73 | 0.52 | 0.6 | 1.07 | inactive |
| ANGPTL2 (angiopoietin like 2) | 1 | -0.2 | 0.03 | 0.05 | -0.7 | inactive |
| ACP7 (acid phosphatase 7, tartrate resistant (putative)) | 1 | -0.67 | -0.76 | -0.34 | -0.91 | inactive |
| DRC8 (dynein regulatory complex subunit 8) | 1 | -0.39 | -0.74 | -0.18 | -0.24 | inactive |
| B4GALT4 (beta-1,4-galactosyltransferase 4) | 1 | -0.03 | 0.09 | -0.24 | 0.07 | inactive |
| LOC388131 (retired record) | 1 | -0.8 | -0.92 | -0.6 | -0.86 | inactive |
| GPR18 (G protein-coupled receptor 18) | 1 | -1.88 | -1.72 | -1.93 | -1.98 | inactive |
| MIR663AHG (MIR663A host gene) | 1 | -0.9 | -0.9 | -0.92 | -0.87 | inactive |
| NINJ2 (ninjurin 2) | 1 | 0.84 | 0.6 | 1.13 | 0.8 | inactive |
| NUP205 (nucleoporin 205) | 1 | -0.56 | -0.29 | -0.53 | -0.87 | inactive |
| NHEJ1 (non-homologous end joining factor 1) | 1 | -0.66 | -0.67 | -0.84 | -0.47 | inactive |
| CA2 (carbonic anhydrase 2) | 1 | -0.7 | -0.7 | -0.76 | -0.63 | inactive |
| XKR9 (XK related 9) | 1 | 0.6 | 0.7 | 0.44 | 0.67 | inactive |
| TBK1 (TANK binding kinase 1) | 1 | -0.03 | 0.17 | 0.03 | -0.28 | inactive |
| AQP1 (aquaporin 1 (Colton blood group)) | 1 | -1.04 | -1.13 | -0.87 | -1.13 | inactive |
| ZNF354B (zinc finger protein 354B) | 1 | 0.02 | 0.39 | -0.43 | 0.11 | inactive |
| RNF44 (ring finger protein 44) | 1 | 1.09 | 0.72 | 1.49 | 1.06 | inactive |
| CXCR6 (C-X-C motif chemokine receptor 6) | 1 | 1.27 | 1.3 | 1.52 | 0.99 | inactive |
